Anti-infective test results gathered from many reports (values: NIAID ChemDB through PubChem).

All rows: tests in culture; agent: HIV-1; method: p24; read-out: EC50

Lines come from different laboratories, so protocols vary. a–b is a range or a potency band. ECn: concentration that inhibits the pathogen or its effect by n%. Blank or dashed fields: not listed here.

compound,setting,strain or isolate,changes,cell line,value
COC(=O)[C@H](C)NP(=O)(OC[C@H]1O[C@@H](n2cc(C)c(=O)[nH]c2=O)C[C@@H]1N=[N+]=[N-])Oc1ccc(OC)cc1,,,,PBMC,0.057 µM
Cc1cn([C@H]2C=C[C@@H](CO)O2)c(=O)[nH]c1=O,,LAV,,CEM,0.1 µM
CC(C)(C)NC(=O)[C@@H]1C[C@@H]2CCCC[C@@H]2N1C(=O)[C@@H](O)[C@H](Cc1ccccc1)NC(=O)[C@H](CC(N)=O)NC(=O)COc1ccccc1,,RF,,MT-2,0.082 µM
CCC[C@H]1[C@@H](OC(=O)N[C@@H](Cc2ccccc2)[C@H](O)CN2C[C@H]3CCCC[C@H]3C[C@H]2C(=O)NC(C)(C)C)CCS1(=O)=O,,IIIB,,MT-4,<0.4 µM
O=c1[nH]cnc2c1ncn2[C@H]1CC[C@@H](CO)O1,,IIIB,,MT-4,<10 µM
Cc1csc(NC(=S)N[C@H](C)c2ccccc2)n1,,IIIB,,PBMC,<0.001 µM
Cc1cccc(C)c1OCC(=O)N[C@@H](Cc1ccccc1)[C@@H](O)C[C@H](Cc1ccccc1)NC(=O)[C@H](C(C)C)N1CCCNC1=O,multidrug-resistant,,,PBMC,>1 µM
COC(=O)[C@H](C)NP(=O)(OC[C@H]1O[C@@H](N2C(=O)NC(=O)C(C)(Br)C2OC)C[C@@H]1N=[N+]=[N-])Oc1ccc(OC)cc1,,,,PBMC,0.05 µM
CCCC[C@@H]1[C@H](OC(=O)N[C@@H](Cc2ccccc2)[C@H](O)CN2C[C@H]3CCCC[C@H]3C[C@H]2C(=O)NC(C)(C)C)CCS1(=O)=O,,IIIB,,MT-4,<0.8 µM
Nc1ncnc2c1ncn2[C@@H]1O[C@H](CO)[C@@H](O)[C@H]1O,,IIIB,,MOLT4 + MOLT-4,>1531 µM
CCOC(=O)P(=O)(OCCc1ccccc1)OC[C@H]1O[C@@H](n2cc(C)c(=O)[nH]c2=O)C[C@@H]1N=[N+]=[N-],,GKV-4046,,MT-4,0.0039 µM
O=C(O)C1=CC(=C(c2ccc(O)c(C(=O)O)c2)c2ccc(O)c(C(=O)O)c2)C=CC1=O,,RF,,C8166,2.5 µg/mL
CC(C)(C)NC(=O)[C@@H]1CN(Cc2cccnc2)CCN1C[C@@H](O)C[C@@H](Cc1ccccc1)C(=O)N[C@H]1c2ccccc2C[C@H]1O,,006,,PBMC,0.005 µM
CCCCCCCCCc1ccc(OCCOCCOCCOCCOCCOCCOCCOCCOCCO)cc1,,,,PBMC,2.195 µM
CC(C)[C@H](NC(=O)c1ccc2ccccc2n1)C(=O)N[C@@H](Cc1ccccc1)[C@H](O)C(=O)N1[C@H](C(=O)NC(C)(C)C)C[C@@H]2CCCC[C@@H]21,,RF,,MT-2,0.057 µM
CC(C)[C@H](NC(=O)c1ccc2ccccc2n1)C(=O)N[C@@H](Cc1ccccc1)[C@H](O)CN1CC[C@@H](SCc2cccnc2)C[C@H]1C(=O)NC(C)(C)C,,BILA1906-resistant (PR V32I A71V),PR-V32I A71V,C8166,0.003 µM
O=C1N(Cc2ccc(CO)cc2)[C@H](Cc2ccccc2)[C@H](O)[C@@H](O)[C@@H](Cc2ccccc2)N1Cc1ccc(CO)cc1,,NL4-3,PR-L10R M46I,MT-4,<0.2 µM
C[n+]1cnc(N)c2[nH]cnc21,,IIIB,,MOLT4 + MOLT-4,>426 µM
CC(C)[C@@H]1[C@H](OC(=O)N[C@@H](Cc2ccccc2)[C@H](O)CN2C[C@H]3CCC[C@H]3C[C@H]2C(=O)NC(C)(C)C)CCS1(=O)=O,,IIIB,,MT-4,<0.1 µM
CN=C1CN=C(c2ccc[nH]2)c2cc(Cl)ccc2N1,,IIIB,,PBMC,1.8 µM
CC(C)Nc1cccnc1N1CCN(C(=O)c2cc3cc(NS(C)(=O)=O)ccc3[nH]2)CC1,,NRTI resistant (RT L74V M41L V106A T215Y) MDR,RT-L74V M41L V106A T215Y,PBMC,0.4 µM
Cc1cn([C@H]2C[C@H](N=[N+]=[N-])[C@@H](COP(=O)(OC(C)C)C(N)=O)O2)c(=O)[nH]c1=O,,GKV-4046,,MT-4,0.002 µM
CC(C)(C)NC(=O)[C@@H]1C[C@@H]2CCCC[C@@H]2CN1C[C@@H](O)[C@H](Cc1ccccc1)NC(=O)O[C@@H]1CCS(=O)(=O)[C@@H]1C1CCCC1,,IIIB,,MT-4,<1.5 µM
Cc1cc(=O)oc2c3c(ccc12)SC[C@H](OC(=O)C12CCC(C)(C(=O)O1)C2(C)C)[C@@H]3OC(=O)C12CCC(C)(C(=O)O1)C2(C)C,,IIIB,,H9,0.141 µM
CC(C)(C)NC(=O)[C@@H]1C[C@@H]2CCCC[C@@H]2CN1C[C@@H](O)[C@H](Cc1ccccc1)NC(=O)O[C@H]1CCS(=O)(=O)C1,,IIIB,,MT-4,<0.364 µM
CCCN(C(=O)OCc1ccccc1)C1CCN(CC[C@](C)(CN(C)S(=O)(=O)c2ccccc2)c2ccccc2)CC1,,YU-2 (M-tropic),,PBMC,<0.06 µM
Nc1ncnc2nc[nH]c12,,IIIB,,MOLT4 + MOLT-4,>254 µM
Cc1ccnc2c1NC(=O)c1cccnc1N2C1CC1,,BILA2185-resistant (PR I84V),,C8166,0.016 µM
Cc1cn([C@H]2CC[C@@H](CO)O2)c(=O)[nH]c1=O,,,,CEM-F + CEM,0.38 µM
Clc1nc(Cl)c2[nH]cnc2n1,,,RT-P157S,CD4+HELA + HeLa,0.9 µM
CN(CC(C)(CCN1CCC(N(CC(O)CO)C(=O)OCc2ccccc2)CC1)c1ccccc1)S(=O)(=O)c1ccccc1,,YU-2 (M-tropic),,PBMC,>6.3 µM
CC1CN(C(=O)C(Cc2c[nH]c3c(C(C)(C)C)cccc23)NC(=O)c2ccc([N+](=O)[O-])cc2)CCN1C(=O)C1CC1,,BAL R5,,PBMC,<10 µM
Nc1ccn([C@@H]2O[C@H](CO)C[C@@H]2F)c(=O)n1,,GBB,,JM,0.05 µg/mL
COc1ccc(OC)c(CCNC(=S)Nc2ccc(Br)cn2)c1,,RT-Y181C A17 NNRTI-resistant,,PBMC,0.14 µM
Cc1cn([C@H]2C[C@H](N)[C@@H](CO)O2)c(=O)[nH]c1=O,,,,PBMC,0.35 µM
Cc1cn([C@H]2C[C@H](N=[N+]=[N-])[C@@H](CO)O2)c(N)nc1=O,,,,CEM-F + CEM,12 µM
CC(C)[C@H](NC(=O)COc1cccc2ccccc12)C(=O)N[C@@H](Cc1ccccc1)[C@H](O)C(=O)N1[C@H](C(=O)NC(C)(C)C)C[C@@H]2CCCC[C@@H]21,,RF,,MT-2,0.007–0.036 µM
CC(C)CN(C[C@@H](O)[C@H](Cc1ccccc1)NC(=O)O[C@H]1CCOC1)S(=O)(=O)c1ccc(N)cc1,,BaL,,PBMC,0.0483 µM
O=C(O)P(=O)(O)O,,GBB,,JM,4 µg/mL
Cc1cn([C@H]2C[C@H](N=[N+]=[N-])[C@@H](CO)O2)c(=O)[nH]c1=O,,,,CEM-F + CEM,0.1 µM
CC(C)(C)OC(=O)[C@@H]1CCCN1C[C@H](O)[C@H](Cc1ccccc1)NC(=O)[C@H](CC(N)=O)NC(=O)OCc1ccccc1,,RF,,C8166,5 µg/mL
C[C@H]1OCC[C@H]1OC(=O)N[C@@H](Cc1ccccc1)[C@H](O)CN1C[C@H]2CCCC[C@H]2C[C@H]1C(=O)NC(C)(C)C,,IIIB,,MT-4,<1.6 µM
S=C(NCCc1cccs1)Nc1ccc(Br)cn1,,NRTI resistant (RT Y181C) A17,RT-Y181C,PBMC,0.04 µM
C=CCN(C(=O)OCc1ccccc1)C1CCN(CCC(CN(C)S(=O)(=O)c2ccccc2)c2ccccc2)CC1,,YU-2 (M-tropic),,PBMC,<0.8 µM
CCCc1c([Se]c2ccccc2)n(COCCO)c(=O)[nH]c1=O,,Cat #3 strain,,MT-2,4.1 µM
COc1ccc2c(c1)c1c3c(c4c5ccccc5n(C)c4c1n2CCC#N)C(=O)NC3=O,,,,U1/HIV-1(+PMA) + U1,0.118 µM
C=CCN(C(=O)OCc1ccc([N+](=O)[O-])cc1)C1CCN(CCC(CO)(CN(C)S(=O)(=O)c2ccccc2)c2ccccc2)CC1,,YU-2 (M-tropic),,PBMC,<0.008 µM
Cc1cn([C@H]2C[C@H](N=[N+]=[N-])[C@@H](CO)O2)c(=O)nc1N,,DV,,Macrophage,0.006 µM
COP(=O)(OC[C@H]1O[C@@H](n2cc(C)c(=O)[nH]c2=O)C[C@@H]1N=[N+]=[N-])C(N)=O,,GKV-4046,,MT-4,0.0026 µM
Nc1ccn([C@@H]2CO[C@H](CO)S2)c(=O)n1,,RF,,C8166,5.5 µM
CN1N=C(N)c2cn([C@@H]3O[C@H](COP(=O)(O)O)[C@@H](O)[C@H]3O)c3ncnc1c23,,,,H9,0.03 µM
Nc1ncnc2c1ncn2[C@@H]1O[C@H](COP(=O)(O)OP(=O)(O)OP(=O)(O)O)[C@@H](O)[C@H]1O,,IIIB,,MOLT4 + MOLT-4,>1826 µM
C#CCN(C(=O)OCc1ccccc1)C1CCN(CCC(C)(CN(C)S(=O)(=O)c2ccccc2)c2ccccc2)CC1,,YU-2 (M-tropic),,PBMC,<1.5 µM
CC(C)(C)NC(=O)[C@@H]1[C@@H]2CCCC[C@@H]2CN1C(=O)[C@@H](O)[C@H](Cc1ccccc1)NC(=O)[C@H](CC(N)=O)NC(=O)c1ccc2ccccc2c1,,RF,,MT-2,0.047 µM
CC(C)CN(C[C@@H](O)[C@H](Cc1ccccc1)NC(=O)[C@H](CC(N)=O)NC(=O)c1ccc2ccccc2n1)C(=O)NC(C)(C)C,,NL4-3,PR-M46I V82T,MT-4,<0.4 µM
CC(C)CN(C[C@@H](O)[C@H](Cc1ccccc1)NC(=O)O[C@H]1CCOC1)S(=O)(=O)c1ccc(N)cc1,"clinical isolate, multidrug-resistant",,,PBMC,0.3 µM
CC(C)c1nc(CN(C)C(=O)N[C@H](C(=O)N[C@@H](Cc2ccccc2)C[C@H](O)[C@H](Cc2ccccc2)NC(=O)OCc2cncs2)C(C)C)cs1,,006,,PBMC,0.0431 µM

3 of the rows above, restated:

compound | setting | strain or isolate | changes | cell line | value
O=C(O)P(=O)(O)O |  | GBB |  | JM | 4 µg/mL
CC(C)Nc1cccnc1N1CCN(C(=O)c2cc3cc(NS(C)(=O)=O)ccc3[nH]2)CC1 |  | NRTI resistant (RT L74V M41L V106A T215Y) MDR | RT-L74V M41L V106A T215Y | PBMC | 0.4 µM
CC(C)c1nc(CN(C)C(=O)N[C@H](C(=O)N[C@@H](Cc2ccccc2)C[C@H](O)[C@H](Cc2ccccc2)NC(=O)OCc2cncs2)C(C)C)cs1 |  | 006 |  | PBMC | 0.0431 µM